# Library screen at single concentrations

From ChEMBL document CHEMBL3988442, “University of Dundee, Small-Polar-MMV Screening Library” (2021).

A: 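Whole-cell growth test on Mycobacterium tuberculosis, read after 3 days in glucose-containing 7H9 medium; the read-out is not stated. Compounds at 500 µM. Higher reads as more growth inhibition (inferred: compounds with an IC50 in retests scored well above the rest). About 18,000 compounds were tested under these conditions; 7.9% (about 1,400) showed 50% or more at least once.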
B: 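Growth of Mycobacterium tuberculosis over 4 days (cholesterol / DPPC medium with tyloxapol); the read-out is not stated. Tested at 500 µM. The record gives no direction; compounds that gave an IC50 in retests scored well above the rest, so higher reads as more growth inhibition. Of about 18,000 compounds tested this way, about 900 (5%) reached 50% or more in at least one test.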

Results are given as percent effect. The controls that fix the scale are not given in the record; negative values are as filed. This is part of a subset picked to be rich in strong results. A dash means the value is not listed here; it may have been measured.

compound,A,B
CCN1C[C@H](NC(=O)c2cccn2C(C)C)[C@@H](OC)C1,25.6%,10.35%
CC1(NC(=O)c2ccc(F)c(F)c2)CCS(=O)(=O)C1 (configuration not stated),18.02%,-
Cc1noc(COc2ccc(S(C)(=O)=O)cc2)n1,-13.26%,-
CN(CCCOc1ccccc1)CC(=O)NC(N)=O,-,-8.746%
CC(C)c1cccc(S(=O)(=O)NCCCN)c1,58.99%,-
CCc1nn2c(=O)cc(CN3CCOC(C)C3)nc2s1 (configuration not stated),16.73%,-
COCCNC(=O)COC(=O)c1ccc2ncsc2c1,-,-13.09%
O=C(NCCc1c[nH]cn1)c1cn2cccnc2n1,-11.91%,-
CCC(C(=O)Nc1cc2c(cc1C)OCO2)N(C)C (configuration not stated),69.29%,-
O=C(c1ccc(F)cc1)N1C[C@@H]2CCN[C@@H]2C1,-,2.265%
CN(CC(=O)N1CCNC1=O)Cc1ccco1,-9.014%,-
COCCNC(=O)c1cc2ccncc2[nH]1,-9.245%,-
CCN1CCN(Cc2nc(-c3ccccc3)no2)CC1,53.3%,25.54%
CN(Cc1cccc(C#N)c1)Cc1ccnc(N)c1,17.11%,-
CCCOc1nsnc1N1CCOCC1,-7.841%,-14.63%
CCCNC(=O)C[S+]([O-])Cc1cccc(Cl)c1 (configuration not stated),44.45%,25.83%
Cn1cc(C#N)cc1C(=O)NCC1CNCCO1 (configuration not stated),6.627%,-
CN(C)c1ncc(CN2CCC3(CCNCC3)C2)cn1,2.526%,-
CC(C)CN(CC(N)=O)S(=O)(=O)N(C)C1CCCCC1,31.03%,-
C1CC(NC2CCOCC2)CCN1,-6.475%,-
CC(NCCCn1cccn1)c1ccc2c(c1)OCO2 (configuration not stated),28.67%,26.75%
COc1cc(C(C)=O)ccc1OCCCN(C)C,25.48%,20.76%
Cc1nnc2ccc(C(=O)NCCN3CCCC3)cn12,-33.09%,-
CN(C)C(=O)CC(N)c1ccccc1 (configuration not stated),6.584%,-
O=C(CSc1ccccc1)NCCCN1CCOCC1,-5.859%,-
CN1N=C(C(=O)NCc2csc(Br)c2)CCC1=O,78.8%,74.24%
COCCNC(=O)CN(C)Cc1ccco1,17.72%,-
COCc1ccc(C(=O)NC2CCC(O)CC2)cc1 (configuration not stated),2.719%,-
CN(C)C(=O)c1cc2ccccc2cc1O,25.99%,-
OC1CCCNCC1 (configuration not stated),7.762%,-
CCc1nc(CNc2ncccc2S(N)(=O)=O)cs1,34.34%,23.47%
CCC(=O)Nc1ccc(Br)cn1,32.86%,12.7%
CC(N)c1nncn1C(C)C (configuration not stated),11.28%,-
NC(=O)COc1cc(Cl)cc(Cl)c1,50.72%,-
CCNS(=O)(=O)c1ccc(CC(=O)N(C)C)cc1,7.995%,-
CN(C)CCCNC1CCS(=O)(=O)C1 (configuration not stated),-8.123%,-
NCCS(=O)(=O)c1ccc(Br)cc1,41.09%,-
Cc1ccc(S(=O)(=O)NC2CC[S+]([O-])CC2)cc1F (configuration not stated),7.856%,-
OCCc1cnn(-c2ccc(F)cn2)c1,-,5.622%
CS(=O)(=O)NCC1CCCCC1,29.57%,-
Cc1ccccc1N1C(=O)C=CC1=O,105%,115.8%

The first 3 entries again:

{"compound": "CCN1C[C@H](NC(=O)c2cccn2C(C)C)[C@@H](OC)C1", "A": 25.6, "B": 10.35}
{"compound": "CC1(NC(=O)c2ccc(F)c(F)c2)CCS(=O)(=O)C1", "stereo": "configuration not stated", "A": 18.02}
{"compound": "Cc1noc(COc2ccc(S(C)(=O)=O)cc2)n1", "A": -13.26}